A mixed list of measured activities; the numbers were collected in NIAID ChemDB.

Shared fields: growth or infection tests; species: Mycobacterium tuberculosis

ECn is the concentration giving n% inhibition of infection, replication or growth. Percent inhibition refers to the dose given; in toxicity tests it is the harm to the cells. Rows are shuffled and stem from different studies. An empty or dashed field is not shown. MIC bound: limit read from a one-dose screen.

structure	strain	conditions	dose	read by	endpoint	mutations	cell line	value
Cc1ccc(-n2c(=S)oc3ccc(C)cc3c2=S)cc1	My 331/88	14 d			MIC			0.5 µM
CCOc1ccc(N=c2ssc(SC)c2-c2ccccc2)cc1	H37Rv			BACTEC	MIC bound			>12.5 µg/mL
CO[C@H]1/C=C/O[C@@]2(C)Oc3c(C)c(O)c4c(=O)c(c5oc6cc(N7CCN(CC(C)C)CC7)cc(=O)c6nc5c4c3=C2O)NC(=O)/C(C)=C\C=C\[C@H](C)[C@H](O)[C@@H](C)[C@@H](O)[C@@H](C)[C@H](OC(C)=O)[C@@H]1C	TN808				MIC			16 µg/mL
C/C([O-])=C(/c1nc(-c2ccc([N+](=O)[O-])o2)no1)[n+]1cc(C)ccc1C	H37Rv			BACTEC	MIC bound			>12.5 µg/mL
COc1cc(-c2nnc(SCC3(c4ccc(Cl)cc4)OCCO3)o2)cc(OC)c1OC	H37Rv		6.25 µg/mL	BACTEC	inhibition			28%
Cc1ccc(CCC(O)c2ccc(Oc3ccccc3)c(O)c2)cc1	Clinical isolate			resazurin	MIC	MDR		3.125 µg/mL
Cc1cc2c(c(C)c1C(O)CO)C(=O)[C@](C)(CO)C2	H37Rv			agar	MIC			23.7 µM
CCn1cc(C(=O)O)c(=O)c2cc(F)c(N3CCN(Cn4c(O)c(N=NC(=O)c5ccncc5)c5cc(Cl)ccc54)CC3)cc21	H37Rv		12.5 µg/mL	BACTEC	inhibition			99%
O=C(O)c1cn2c(n1)CN(c1cc3c(=O)c(C(=O)O)c4n(c3cc1[N+](=O)[O-])CS4)CC2	H37Rv			agar	MIC			0.2 µM
Oc1cc(Cl)ccc1Oc1ccc(Cl)cc1Cl	Clinical isolate			resazurin	MIC	INH resistant		>12.5 µg/mL
CCN(CC)c1ccc2nc3ccc(N=Nc4ccc(O)cc4)cc3[n+](-c3ccccc3)c2c1.[Cl-]	H37Rv		12.5 µg/mL	BACTEC	inhibition			95%
COc1ccc2oc(=S)n(-c3cccc(F)c3)c(=S)c2c1	My 331/88	14 d			MIC			62.5 µM
O=C(O)c1c2n(c3cc([N+](=O)[O-])c(N4CCC(N5CCCCC5)CC4)cc3c1=O)CS2	H37Rv			agar	MIC			1.75 µM
CCCCCCCCCCCCCCCCCCN(C)C[C@H]1O[C@H](O[C@H]2O[C@H](CN(C)CCCCCCCCCCCCCCCCCC)[C@@H](O)[C@H](O)[C@H]2O)[C@H](O)[C@@H](O)[C@@H]1O	H37Ra				MIC			>128 µg/mL
CCN1C(=O)C(C)c2cc(C(=O)CN3CCN(c4ccc([N+](=O)[O-])cc4)CC3)ccc21	H37Rv			visual reading / absorbance	MIC			1.56 µg/mL
Nc1ccc(C(=O)O)c(O)c1	H37Rv				Mean MIC			2.31 µg/mL
COc1cccc(N2CCN(CN3C(=O)/C(=N\c4ncc(Cc5cc(OC)c(OC)c(OC)c5)c(N)n4)c4cc(Br)ccc43)CC2)c1			6.25 µg/mL	BACTEC	inhibition			43%
COc1cc2c(cc1OC)CN(c1cc3c(=O)c(C(=O)O)c4n(c3cc1[N+](=O)[O-])CS4)CC2	H37Rv			agar	MIC	MDR-TB		0.83 µM
CCC[C@@H]1C[C@@H](C(=O)N[C@@H]([C@H]2O[C@H](SC)[C@H](O)[C@@H](O)[C@H]2O)[C@@H](C)O)N(C)C1	H37Rv				Mean MIC			>256 µg/mL
COC(=O)/C(=N\NC(C)(C)C)C(C(=O)OC)C(=O)C(=O)Nc1nc2ccc([N+](=O)[O-])cc2s1	H37Rv			resazurin	MIC bound			>6.25 µg/mL
O=C(O)c1c2n(c3cc([N+](=O)[O-])c(N4CCN(C(c5ccccc5)c5ccc(Cl)cc5)CC4)cc3c1=O)CS2	H37Rv			agar	MIC			11.1 µM
Cl.Cl.N=C(N)c1ccc(NC(=O)c2ccc(C(=O)Nc3ccc(C(=N)N)cc3)c(N)c2)cc1	H37Rv		12.5 µg/mL	BACTEC	inhibition			0%
CC1CN(c2cc3c(=O)c(C(=O)O)c4n(c3cc2F)CS4)CC(C)O1	H37Rv			agar	MIC	MDR-TB		4.28 µM
NNC(=O)c1ccncc1	Clinical isolate			resazurin	MIC	MDR		>12.5 µg/mL
C/C(=N\NC(=O)c1cccnc1)[C@H]1CC[C@H]2[C@@H]3CC[C@H]4C[C@@H](O)CC[C@]4(C)[C@H]3CC[C@]12C	H37Rv			BACTEC	MIC bound			>12.5 µg/mL
CCOC(=O)c1cn(Cc2ccc(F)cc2)cc1-c1ccccc1	CIP103471				MIC			125 µg/mL
O=C1c2cc(F)ccc2-n2c1nc1cc(F)ccc1c2=O	MDR 10038				MIC			<0.5 µg/mL
CN1C(=O)Cc2cc(C(=O)CN3CCN(c4noc5ccccc45)CC3)ccc21	H37Rv			visual reading / absorbance	MIC			6.25 µg/mL
CCOC(=O)C1=C(Nc2ccc(F)cc2)C(=O)N(C(C)(C)C)C1	H37Rv			BACTEC	MIC			≥12.8 µg/mL
Cc1cccc2c(=O)n3c(nc12)C(=O)c1cc(F)ccc1-3	H37Rv				MIC			5 µg/mL
CCn1cc(C(=O)O)c(=O)c2cc(F)c(N3CCN(CN4C(=O)C(=O)c5ccccc54)CC3)cc21	H37Rv			BACTEC	EC50			<12.5 µg/mL
CCOC(=O)c1c[nH]cc1-c1ccncc1CC	CIP103471				MIC			250 µg/mL
Cc1ccccc1N1CCOS(=O)OC(C)C1	H37Rv		12.5 µg/mL	BACTEC	inhibition			-25%
CO[C@H]1/C=C/O[C@@]2(C)Oc3c(C)c(O)c4c(O)c(c(/C=N/N5CCN(C)CC5)c(O)c4c3C2=O)NC(=O)/C(C)=C\C=C\[C@H](C)[C@H](O)[C@@H](C)[C@@H](O)[C@@H](C)[C@H](OC(C)=O)[C@@H]1C	Clinical isolate			resazurin	MIC	INH resistant		0.007 µg/mL
COc1ccc2oc(=O)n(-c3ccc(Cl)cc3)c(=S)c2c1	My 331/88	21 d			MIC			16 µM
Oc1ccccc1-c1nnc(SCC2(c3ccc(F)cc3)OCCO2)o1	H37Rv		6.25 µg/mL	BACTEC	inhibition			33%
Cc1cc(C)c2nc3n(c(=O)c2c1)-c1ccc(F)cc1C3=O	MDR 10038				MIC			<0.3 µg/mL
COc1cc(Cc2cnc(/N=C3\C(=O)N(CN4CCN(c5c(F)cc6c(=O)c(C(=O)O)cn(C7CC7)c6c5OC)CC4C)c4ccc(Br)cc43)nc2N)cc(OC)c1OC			6.25 µg/mL	BACTEC	inhibition			0%
COc1cc(-c2n[nH]c(=S)o2)cc(OC)c1OC	H37Rv		6.25 µg/mL	BACTEC	inhibition			3%
CSC(SC)(C(=O)O)c1cc(-c2c(Cl)cccc2Cl)no1	H37Rv			resazurin	MIC bound			>6.25 µg/mL
CCCCCCCCCCCCN(CCCCCCCCCCCC)C[C@H]1O[C@H](O[C@H]2O[C@H](CN(CCCCCCCCCCCC)CCCCCCCCCCCC)[C@@H](O)[C@H](O)[C@H]2O)[C@H](O)[C@@H](O)[C@@H]1O	H37Ra				MIC			>128 µg/mL
CCc1cnccc1-c1c[nH]cc1C(=O)NN	CIP103471				MIC			>250 µg/mL
C=C1C(=O)C23C(O)CC4(C)C5CCCC4(C(O)OC5)C2C(OC(C)=O)CC1C3O	H37Rv			BACTEC	MIC bound			>12.5 µg/mL
CCn1cc(C(=O)O)c(=O)c2cc(F)c(N3CCN(CN4C(=O)C(=O)c5cc(Cl)ccc54)CC3)cc21	H37Rv			BACTEC	EC50			<12.5 µg/mL
CCN.CCNC(=S)S	H37Rv		12.5 µg/mL	BACTEC	inhibition			-8%
O=C1c2cc(Br)ccc2-n2c1nc1ccccc1c2=O	H37Rv				MIC			<0.2 µg/mL
NC[C@H]1O[C@H](O[C@H]2[C@H](O)[C@@H](O[C@H]3O[C@H](CO)[C@@H](O)[C@H](N)[C@H]3O)[C@H](N)C[C@@H]2N)[C@H](N)C[C@@H]1O	H37Ra				Median MIC			8 µg/mL
NC(N)=NC[C@H]1O[C@H](O[C@H]2O[C@H](CN=C(N)N)[C@@H](O)[C@H](O)[C@H]2O)[C@H](O)[C@@H](O)[C@@H]1O	H37Ra				MIC			>128 µg/mL
C[C@H]1[C@H](C)CC[C@]2(C(=O)O)CC[C@]3(C)C(=CC[C@@H]4[C@@]5(C)C[C@@H](O)[C@H](O)[C@@](C)(CO)[C@@H]5[C@H](O)C[C@]43C)[C@H]12	H37Rv		12.8 µg/mL	BACTEC	inhibition			15%
CCn1cc(C(=O)O)c(=O)c2cc(F)c(N3CCN(CN4C(=O)/C(=N\c5ncc(Cc6cc(OC)c(OC)c(OC)c6)c(N)n5)c5cc(Br)ccc54)C(C)C3)c(F)c21			6.25 µg/mL	BACTEC	inhibition			0%
NC[C@H]1O[C@H](O[C@H]2[C@H](O)[C@@H](O[C@H]3O[C@H](CO)[C@@H](O)[C@H](N)[C@H]3O)[C@H](N)C[C@@H]2N)[C@H](O)[C@@H](O)[C@@H]1O	H37Rv				Mean MIC			2.19 µg/mL
CCCCN(CCCC)CN1C(=O)/C(=N\c2ncc(Cc3cc(OC)c(OC)c(OC)c3)c(N)n2)c2cc(Br)ccc21			6.25 µg/mL	BACTEC	inhibition			32%
CCN(CC)CCn1c(C)nc2c1C(=O)c1nc(C)n(CCN(CC)CC)c1C2=O.Cl.Cl	H37Rv		12.5 µg/mL	BACTEC	inhibition			0%
CCn1cc(C(=O)O)c(=O)c2cc(F)c(N3CCN(Cn4c(O)c(N=NC(N)=O)c5ccccc54)CC3)cc21	H37Rv			BACTEC	EC50			<12.5 µg/mL
CC(=O)/C(=C\c1ccc([N+](=O)[O-])o1)C(=O)CCN(C)C	H37Rv			BACTEC	MIC bound			>12.5 µg/mL
CCN1C(=O)Cc2cc(C(=O)CN3CCN(c4noc5ccccc45)CC3)ccc21	H37Rv			visual reading / absorbance	MIC			3.12 µg/mL
C[C@@H]1CN(c2c(F)c(N)c3c(=O)c(C(=O)O)cn(C4CC4)c3c2F)C[C@H](C)N1	H37Ra				Mean MIC			0.084 µg/mL
Cc1c2c(cc(CO)c1C(O)CO)[C@@H](O)[C@H](C)C2=O	H37Rv			agar	MIC			47 µM
COc1cc(-c2nnc(SCC(=O)c3ccc(-c4ccccc4)cc3)o2)cc(OC)c1OC	H37Rv		6.25 µg/mL	BACTEC	inhibition			37%
CCN1C(=O)C(C)c2cc(C(=O)CN3CCN(c4noc5c(Cl)cccc45)CC3)ccc21	H37Rv			visual reading / absorbance	MIC			3.12 µg/mL
CC(C)(C)CC(C)(O)CN(CC(C)(O)CC(C)(C)C)C(=S)S	H37Rv				MIC		VERO	3.1 µg/mL
CN[C@@H]1[C@@H](O)[C@@H](O[C@@H]2[C@@H](O)[C@H](O[C@H]3O[C@H](CN)CC[C@H]3N)[C@@H](N)C[C@H]2N)OC[C@]1(C)O	H37Ra				Mean MIC			8 µg/mL
COc1cc(Cc2cnc(/N=C3\C(=O)N(CN4CCN(c5cc6c(cc5F)c(=O)c(C(=O)O)cn6C5CC5)CC4)c4ccc(Br)cc43)nc2N)cc(OC)c1OC			6.25 µg/mL	BACTEC	inhibition			0%
COc1ccc(CCC(O)c2ccc(Oc3ccccc3)c(O)c2)cc1	Clinical isolate			resazurin	MIC	MDR		3.125 µg/mL
Cc1csc(=N)n1/N=C/c1cccnc1	H37Rv		6.25 µg/mL	BACTEC	inhibition			5%
O=C(CCc1ccccc1)c1ccc(Oc2ccccc2)c(O)c1	H37Rv			resazurin	MIC			15 µg/mL
CCCCCCCCCCCCCCCCS(=O)(=O)NC[C@H]1O[C@H](O[C@H]2O[C@H](CNS(=O)(=O)CCCCCCCCCCCCCCCC)[C@@H](O)[C@H](O)[C@H]2O)[C@H](O)[C@@H](O)[C@@H]1O	H37Ra				MIC			>32 µg/mL
O=c1oc2ccc(Br)cc2c(=S)n1-c1ccc(Cl)cc1	My 331/88	14 d			MIC			0.5 µM
O=C(CSc1nnc(-c2ccccc2)o1)c1ccccc1	H37Rv		6.25 µg/mL	BACTEC	inhibition			28%
CC[C@@H](CO)NCCN[C@@H](CC)CO	H37Rv			agar	MIC			30.6 µM
CCOC(=O)c1cn(Cc2ccc(Cl)cc2)c(CC)c1-c1ccncc1	CIP103471				MIC			4 µg/mL
Cc1cc2nc3ccc(N)cc3oc-2cc1=[N+](C)C	H37Rv		12.5 µg/mL	BACTEC	inhibition			99%
O=C1c2ccccc2-n2c1nc1ccc(Cl)cc1c2=O	MDR 10038				MIC			2 µg/mL
COc1ccc(N=C2C(=Nc3ccc(OC)cc3)N(c3ccc(OC)cc3)C(=S)N2C)cc1	H37Rv		12.5 µg/mL	BACTEC	inhibition			52%
Oc1cc(C(O)CCc2ccccc2)ccc1Oc1ccccc1	Clinical isolate			resazurin	MIC	INH resistant		6.25 µg/mL
CCCCS(=O)(=O)NC[C@H]1O[C@H](O[C@H]2O[C@H](CNS(=O)(=O)CCC)[C@@H](O)[C@H](O)[C@H]2O)[C@H](O)[C@@H](O)[C@@H]1O	H37Ra				MIC			>128 µg/mL
Cc1ccc(NC(=S)SCc2ccc(Cl)c(Cl)c2)cc1Cl	H37Rv		12.5 µg/mL	BACTEC	inhibition			82%
NNC(=O)c1c[nH]cc1-c1ccncc1	CIP103471				MIC			>250 µg/mL

Repeating the first 8 entries:

structure,strain,conditions,dose,read by,endpoint,mutations,cell line,value
Cc1ccc(-n2c(=S)oc3ccc(C)cc3c2=S)cc1,My 331/88,14 d,,,MIC,,,0.5 µM
CCOc1ccc(N=c2ssc(SC)c2-c2ccccc2)cc1,H37Rv,,,BACTEC,MIC bound,,,>12.5 µg/mL
CO[C@H]1/C=C/O[C@@]2(C)Oc3c(C)c(O)c4c(=O)c(c5oc6cc(N7CCN(CC(C)C)CC7)cc(=O)c6nc5c4c3=C2O)NC(=O)/C(C)=C\C=C\[C@H](C)[C@H](O)[C@@H](C)[C@@H](O)[C@@H](C)[C@H](OC(C)=O)[C@@H]1C,TN808,,,,MIC,,,16 µg/mL
C/C([O-])=C(/c1nc(-c2ccc([N+](=O)[O-])o2)no1)[n+]1cc(C)ccc1C,H37Rv,,,BACTEC,MIC bound,,,>12.5 µg/mL
COc1cc(-c2nnc(SCC3(c4ccc(Cl)cc4)OCCO3)o2)cc(OC)c1OC,H37Rv,,6.25 µg/mL,BACTEC,inhibition,,,28%
Cc1ccc(CCC(O)c2ccc(Oc3ccccc3)c(O)c2)cc1,Clinical isolate,,,resazurin,MIC,MDR,,3.125 µg/mL
Cc1cc2c(c(C)c1C(O)CO)C(=O)[C@](C)(CO)C2,H37Rv,,,agar,MIC,,,23.7 µM
CCn1cc(C(=O)O)c(=O)c2cc(F)c(N3CCN(Cn4c(O)c(N=NC(=O)c5ccncc5)c5cc(Cl)ccc54)CC3)cc21,H37Rv,,12.5 µg/mL,BACTEC,inhibition,,,99%